{"source": "PubChem BioAssay AID1259414 (Drosophila RNAi Screening Center, 2018)", "screen": "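Host factors increasing or decreasing Wolbachia levels in cultured fly cells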 (primary screen)", "cell system": "Drosophila JW18 cells infected with Wolbachia", "reagents": "long dsRNA against Drosophila genes, 0.25 µg dsRNA per well of a 384-well plate", "timing": "5 days", "conditions": "cells persistently infected with Wolbachia before knock-down; no added drug", "measurement": "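Imaged fluorescence in situ signal for Wolbachia 23S rRNA per DAPI-counted host cell, given as a robust z-score within each plate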", "direction": "Wolbachia per cell robust z: higher = more Wolbachia per host cell than the plate typical", "hit rule": "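Active if absolute robust z reaches 1.5 in two or more of three replicates, leaving out multi- or no-target dsRNAs, genes unexpressed in JW18 and A1 wells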", "note": "The deposit covers about 24,000 reagents; shown is an unselected part of those that have a named target and a result. Of all reagents, about 1,210 (5%) are marked active. 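Inactive calls also include excluded dsRNAs with several or no targets, genes unexpressed in JW18, and well A1, regardless of score.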 Unmarked entries are inactive."}
{"gene knocked down": "CAH5", "dsRNA": "DRSC15372", "Wolbachia per cell robust z, rep 1": 0.988, "Wolbachia per cell robust z, rep 2": -0.933, "Wolbachia per cell robust z, rep 3": 0.161}
{"gene knocked down": "Rel", "dsRNA": "DRSC16819", "Wolbachia per cell robust z, rep 1": 0.43, "Wolbachia per cell robust z, rep 2": 0.558, "Wolbachia per cell robust z, rep 3": -0.355}
{"gene knocked down": "Rel", "dsRNA": "DRSC40716", "Wolbachia per cell robust z, rep 1": -0.679, "Wolbachia per cell robust z, rep 2": 0.0332, "Wolbachia per cell robust z, rep 3": -0.103}
{"gene knocked down": "CG3330", "dsRNA": "DRSC15477", "Wolbachia per cell robust z, rep 1": 0.695, "Wolbachia per cell robust z, rep 2": -8.55, "Wolbachia per cell robust z, rep 3": 0.427}
{"gene knocked down": "Root", "dsRNA": "DRSC15972", "Wolbachia per cell robust z, rep 1": 0.323, "Wolbachia per cell robust z, rep 2": -1.5, "Wolbachia per cell robust z, rep 3": -0.568}
{"gene knocked down": "Bcs1", "dsRNA": "DRSC02789", "Wolbachia per cell robust z, rep 1": -1.18, "Wolbachia per cell robust z, rep 2": 0.87, "Wolbachia per cell robust z, rep 3": 0.121}
{"gene knocked down": "Ssdp", "dsRNA": "DRSC16211", "Wolbachia per cell robust z, rep 1": 1.03, "Wolbachia per cell robust z, rep 2": -0.851, "Wolbachia per cell robust z, rep 3": -3.83}
{"gene knocked down": "Ssdp", "dsRNA": "DRSC27526", "Wolbachia per cell robust z, rep 1": 0.267, "Wolbachia per cell robust z, rep 2": 1.13, "Wolbachia per cell robust z, rep 3": 0.598}
{"gene knocked down": "CG13733", "dsRNA": "DRSC10061", "Wolbachia per cell robust z, rep 1": 1.05, "Wolbachia per cell robust z, rep 2": 0.413, "Wolbachia per cell robust z, rep 3": -0.136}
{"gene knocked down": "CG32079", "dsRNA": "DRSC22636", "Wolbachia per cell robust z, rep 1": -0.481, "Wolbachia per cell robust z, rep 2": 0.7, "Wolbachia per cell robust z, rep 3": 0.375}
{"gene knocked down": "Nrg", "dsRNA": "DRSC17573", "Wolbachia per cell robust z, rep 1": -0.733, "Wolbachia per cell robust z, rep 2": -0.928, "Wolbachia per cell robust z, rep 3": -2.52}
{"gene knocked down": "Nrg", "dsRNA": "DRSC18688", "Wolbachia per cell robust z, rep 1": 1.94, "Wolbachia per cell robust z, rep 2": -0.0301, "Wolbachia per cell robust z, rep 3": -0.51}
{"gene knocked down": "Nrg", "dsRNA": "DRSC27797", "Wolbachia per cell robust z, rep 1": -0.446, "Wolbachia per cell robust z, rep 2": -0.78, "Wolbachia per cell robust z, rep 3": -0.797}
{"gene knocked down": "Grx5", "dsRNA": "DRSC19593", "Wolbachia per cell robust z, rep 1": -0.333, "Wolbachia per cell robust z, rep 2": -0.475, "Wolbachia per cell robust z, rep 3": -2.36}

Quoted from the listing, 3 entries:
{"gene knocked down": "CG13733", "dsRNA": "DRSC10061", "Wolbachia per cell robust z, rep 1": 1.05, "Wolbachia per cell robust z, rep 2": 0.413, "Wolbachia per cell robust z, rep 3": -0.136}
{"gene knocked down": "CG32079", "dsRNA": "DRSC22636", "Wolbachia per cell robust z, rep 1": -0.481, "Wolbachia per cell robust z, rep 2": 0.7, "Wolbachia per cell robust z, rep 3": 0.375}
{"gene knocked down": "Nrg", "dsRNA": "DRSC17573", "Wolbachia per cell robust z, rep 1": -0.733, "Wolbachia per cell robust z, rep 2": -0.928, "Wolbachia per cell robust z, rep 3": -2.52}

Further records follow:
{"gene knocked down": "spin", "dsRNA": "DRSC07176", "Wolbachia per cell robust z, rep 1": 0.562, "Wolbachia per cell robust z, rep 2": 0.512, "Wolbachia per cell robust z, rep 3": 0.561}
{"gene knocked down": "spin", "dsRNA": "DRSC22271", "Wolbachia per cell robust z, rep 1": 0.145, "Wolbachia per cell robust z, rep 2": 1.03, "Wolbachia per cell robust z, rep 3": -0.537}
{"gene knocked down": "ZIPIC", "dsRNA": "DRSC16349", "Wolbachia per cell robust z, rep 1": -0.488, "Wolbachia per cell robust z, rep 2": -1.93, "Wolbachia per cell robust z, rep 3": -0.0659}
{"gene knocked down": "CG15201", "dsRNA": "DRSC19648", "Wolbachia per cell robust z, rep 1": -5.05, "Wolbachia per cell robust z, rep 2": -0.902, "Wolbachia per cell robust z, rep 3": -0.225}
{"gene knocked down": "Polr2A", "dsRNA": "DRSC20280", "Wolbachia per cell robust z, rep 1": "2.44 (active)", "Wolbachia per cell robust z, rep 2": 2.22, "Wolbachia per cell robust z, rep 3": 1.43}
{"gene knocked down": "Polr2A", "dsRNA": "DRSC27157", "Wolbachia per cell robust z, rep 1": "2.4 (active)", "Wolbachia per cell robust z, rep 2": 1.57, "Wolbachia per cell robust z, rep 3": 1.56}
{"gene knocked down": "Gr59a", "dsRNA": "DRSC21550", "Wolbachia per cell robust z, rep 1": 0.912, "Wolbachia per cell robust z, rep 2": -0.947, "Wolbachia per cell robust z, rep 3": -0.748}
{"gene knocked down": "Cpsf73", "dsRNA": "DRSC16291", "Wolbachia per cell robust z, rep 1": -4.08, "Wolbachia per cell robust z, rep 2": 1.68, "Wolbachia per cell robust z, rep 3": -0.0784}
{"gene knocked down": "Cpsf73", "dsRNA": "DRSC28954", "Wolbachia per cell robust z, rep 1": 0.516, "Wolbachia per cell robust z, rep 2": 1.36, "Wolbachia per cell robust z, rep 3": 0.401}
{"gene knocked down": "beg", "dsRNA": "DRSC10923", "Wolbachia per cell robust z, rep 1": 0.0589, "Wolbachia per cell robust z, rep 2": -0.00827, "Wolbachia per cell robust z, rep 3": -1.58}
{"gene knocked down": "E(var)3-9", "dsRNA": "DRSC23242", "Wolbachia per cell robust z, rep 1": -2.99, "Wolbachia per cell robust z, rep 2": 0.232, "Wolbachia per cell robust z, rep 3": 0.513}
{"gene knocked down": "E(var)3-9", "dsRNA": "DRSC29480", "Wolbachia per cell robust z, rep 1": -0.999, "Wolbachia per cell robust z, rep 2": -0.345, "Wolbachia per cell robust z, rep 3": -0.31}
{"gene knocked down": "CR43105", "dsRNA": "DRSC40550", "Wolbachia per cell robust z, rep 1": -1.15, "Wolbachia per cell robust z, rep 2": 0.806, "Wolbachia per cell robust z, rep 3": 0.0771}
{"gene knocked down": "Jon99Cii", "dsRNA": "DRSC16858", "Wolbachia per cell robust z, rep 1": 0.498, "Wolbachia per cell robust z, rep 2": -4.16, "Wolbachia per cell robust z, rep 3": -1.59}
{"gene knocked down": "Jon99Cii", "dsRNA": "DRSC22574", "Wolbachia per cell robust z, rep 1": 0.43, "Wolbachia per cell robust z, rep 2": 0.96, "Wolbachia per cell robust z, rep 3": 0.802}
{"gene knocked down": "Cpes", "dsRNA": "DRSC04475", "Wolbachia per cell robust z, rep 1": 0.823, "Wolbachia per cell robust z, rep 2": -1.31, "Wolbachia per cell robust z, rep 3": 0.258}
{"gene knocked down": "Cpes", "dsRNA": "DRSC27503", "Wolbachia per cell robust z, rep 1": -0.764, "Wolbachia per cell robust z, rep 2": -0.0733, "Wolbachia per cell robust z, rep 3": 0.783}
